Source: the supplement of paper PMC12637763
Where a chain is given by its changes, count along the chain named. Where “and” joins values, the source holds several entries; their conditions need not be identical. Equal entries are not always repeated. The list shows a part of the results. Env chains of viruses from a treatment-interruption trial, translated from the printed DNA. IC50 / IC80 of two broadly neutralizing antibodies; lower = more sensitive virus; >50 µg/ml means not reached and <0.001 µg/ml is below the lowest dose. No active / inactive call.

B1: HIV-1 Env, rebound clone, placebo arm (protein)
chain: MRVKGIKRNCQRLWKWGTMLLGMLMICSAADNLWVTVYYGVPVWKDATTTLFCASDAKGYETEVHNVWATHACVPTDPSPNEVVLENVTENFNMWKNDMVEQMHEDIISLWDQSLKPCVKLTPLCVTLKCTNATSCTSANATKNVRCDATDSSGNTTTNGTQGVTQGVRTETDEIKNCTFNITTSTRENVEGRALFSDLDLVYDSSAQSYRLIRCNTSVITQACPKVSFEPIPIHYCAPAGFAILKCRDKGFNGTGPCKNVSTVQCTHGIRPVVSTHLLLNGSLAEGKVVIRSENFTDNAKTIIVQLAEAVNITCSRPNNNTRKRMSLGPGKVWYSTGDIIGDIRKAHCNLSGSAWNKTLHQVVAKLREQFENKTIIFKPPPGGDPEILMHNFICGGEFFYCNSTPLFNTTWHNSTWNSTMGNTEGSNDTNITLHCRIKQIINMWQGVGRAMYAPPIKGQIRCSSNITGILLTRDGGNNITTSTNETFRPGGGNMKDNWRSELYKYKVIKIEPLGVAPTKARRRVVQREKRAVGVIGAMFLGFLGAAGSTMGAASLTLTVQARQLLSGIVQQQNNLLKAIEAQQQLLRLTVWGIKQLQARVLAVERYLRDQQLLGIWGCSGKLICTTSVPWNASWSNKSVDDIWGNMTWMQWEREIDNYTGIIYNLLEKSQNQQEKNEQELLELDKWASLWNWFDISNWLWYIKIFIMVVGGLIGLRIVFAVLSVVNRVRQGYSPLSFQTRFPAPRGPDRPEGIEEGGGERDRGRSDRLVTGLLELIWDDLRSLCIFSYHRLSDLLLIAARIVELLGRRGWEALKYWWNLLQYWSQELKNSAVSLLNATAIAVAEGTDRIIEAVLRIYRAIIHIPTRIRQGLERALL
B2: HIV-1 Env, rebound clone, placebo arm (protein)
chain: MRVKGIKRNCQRLWKWGTMLLGMLMICSAADNLWVTVYYGVPVWKDATTTLFCASDAKGYETEVHNVWATHACVPTDPSPNEVVLENVTENFNMWKNDMVEQMHEDIISLWDQSLKPCVKLTPLCVTLKCTNATSCTSANATKNVRCDATDSSGNTTTNGTQGVTQGVRTETDEIKNCTFNITTSTRENVEGRALFSDLDLVYDSSTQSYRLIRCNTSVITQACPKVSFEPIPIHYCAPAGFAILKCRDKGFNGTGPCKNVSTVQCTHGIRPVVSTHLLLNGSLAEGKVVIRSENFTDNAKTIIVQLKEAVNMTCIRPNNNTRKRMSLGPGKVWYSTGDIIGDIRKAQCNLSSQAWNKTLHQVVAKLREQFENKTIIFKPPPGGDPEILMHNFNCGGEFFYCNSTPLFNTTWLNSTWNSTMDRNSSDTSEITLQCRIKQIINMWQGVGRAMYAPPIKGQIKCSSNITGLLLTRDGGNNITSTNETFRPGGGNMKDNWRSELYKYKVIKIEPLGVAPTKARRRVVQREKRAVGVIGAMFLGFLGAAGSTMGAASLTLTVQARQLLSGIVQQQNNLLKAIEAQQQLLRLTVWGIKQLQARVLAVERYLRDQQLLGIWGCSGKLICTTSVPWNASWSNKSVDDIWGNMTWMQWEREIDNYTGIIYNLLEKSQNQQEKNEQELLELDKWASLWNWFDISNWLWYIKIFIMVVGGLIGLRIVFAVLSVVNRVRQGYSPLSFQTRFPAPRGPDRPEGIEEGGGERDRGRSDRLVTGLLELIWDDLRSLCIFSYHRLSDLLLIAARIVELLGRRGWEVLKYWWNLLQYWSQELKNSAVSLLNATAIAVAEGTDRIIEAVLRIYRAIIHIPTRIRQGLERALL
B3: HIV-1 Env, rebound clone, placebo arm (protein)
chain: MKVMEIKKNWQNWWRGGILLLGILMIYSAAGKEDLWVTVYYGVPVWKETTTTLFCASDAKAYETEKHNVWATHACVPTDPNPQEIDLDNVTENFNMWKNNMVEQMHEDIISLWDQSLKPCVKLTPLCVTLSCTDVVINNTNTNTTGPRVENGELKNCSFNITTDIRDRIKKEYATFDKLDVVPINDNITNSTNNATNYILISCNTSTITQACPKVSFEPIPIHYCAPAGYAILKCKDKNFNGTGPCRNVSTVQCTHGIKPVVSTQLLLNGSLAEDEIVIRSENFTNNAKTIIVQLKDPVEINCTRPNNNTRKGIRVGPGRAIYATGQIIGDIRKAYCNISIPKWDDTLKQIVKKLQEQFKNKTIKINQSAGGDPEIVRHTFNCGGEFFYCDTSKLFNSSWDATGNRTENSTRGRSDTFILPCRIKQIVNMWQQVGKAMYAPPVSGLIKCSSNITGLLLTRDGGNSNNTEEIFRPEGGDMRDNWRSELYKYKVVRLEPLGVAPTKAKRRVVQREKRAVGLGVMFLGFLGAAGSTMGAASITLTVQARQLLSGIVQQQNNLLRAIEAQQHMLQLTVWGIKQLQARVLAVERYLKDQQLMGIWGCSGKLICTTAVPWNASWSNRSYNYIWDNMTWMEWEREIDNYTGLIYNLIEESQNQQEKNEKDLLELDKWASLWNWFSITNWLWYIKIFIMIIGGLIGLRIVFTVLSIVNRVRQGYSPLPFQTRFPAPRGPDRPGGTEEEGGEKDRDTSGRLVDGFLALIWVDLRNLCLFSYRHLRDLLLIVARVVELLGRRGWEALKYWWNLLQYWSQELKNSAISLLNATAIAVAEGTDRIIKALQRAGRAILHIPTRIRQGLERALL
B4: HIV-1 Env, rebound clone, placebo arm (protein)
chain: MKVMEIKKNWQNWWRGGILLLGILMIYSAAGKEDLWVTVYYGVPVWKETTTTLFCASDAKAYETEKHNVWATHACVPTDPNPQEIDLDNVTENFNMWKNNMVEQMHEDIISLWDQSLKPCVKLTPLCVTLSCTDVVINNTNTNTTGPRVENGELKNCSFNITTDIRDRIKKEYATFDKLDVVPINDNITNSTNNATNYILISCNTSTITQACPKVSFEPIPIHYCAPAGYAILKCKDKNFNGTGPCRNVSTVQCTHGIKPVVSTQLLLNGSLAEDEIVIRSENFTNNAKTIIVQLKDPVEINCTRPNNNTRKGIRVGPGRAIYATGQIIGDIRKAYCNISIPKWDDTLKQIVKKLQEQFKNKTIKINQSAGGDPEIVRHTFNCGGEFFYCDTSKLFNSSWDATGNRTENSTRGNDTFILPCRIKQIVNMWQQVGKAMYAPPVSGLIKCSSNITGLLLTRDGGNSNNTEEIFRPEGGDMRDNWRSELYKYKVVRLEPLGVAPTKAKRRVVQREKRAVGLGVMFLGFLGAAGSTMGAASITLTVQARQLLSGIVQQQNNLLRAIEAQQHMLQLTVWGIKQLQARVLAVERYLKDQQLMGIWGCSGKLICTTAVPWNASWSNRSYNYIWDNMTWMEWEREIDNYTGLIYNLIEESQNQQEKNEKDLLELDKWASLWNWFSITNWLWYIKIFIMIIGGLIGLRIVFTVLSIVNRVRQGYSPLPFQTRFPAPRGPDRPGGTEEEGGEKDRDTSGRLVDGFLALIWVDLRNLCLFSYRHLRDLLLIVARVVELLGRRGWEALKYWWNLLQYWSQELKNSAISLLNATAIAVAEGTDRIIKALQRAGRAILHIPTRIRQGLERALL
B5: HIV-1 Env, rebound clone, placebo arm (protein)
chain: B4 chain with V149M, R315S, N414S
B6: HIV-1 Env, rebound clone, placebo arm (protein)
chain: MKVKGTRMNWQHLWRWGTLMLGLVIICNASNTNLWVTVYYGVPAWEDADTTLFCASDAKAYSTEKHNVWATHACVPTDPNPQEISLPNVTENFDMWKNNMVEQMHEDIISLWDESLKPCVKLTPLCVTLTCSDINITNSSNTTTTNGNNSMVDPEEIKNCTFNMTTEIIDKKKEEYALFYKLDIVQINNGNNSKDYRLINCNVSTIKQACPKVSFEPIPIHYCAPAGFAILKCKDKNFNGTGPCKNVSTVQCTHGIKPVVSTQLLLNGSLAEEDIVIRTKNITDNGNNIIVHLNESITINCTRPNNNTRKSIHLGQGQAFYATGAIIGDIRQAHCNVSGSQWINMIKRVAGKLKGVFSKNVTFNSSAGGDLEITTHSFNCGGEFFYCNTSNLFNSSILTSNNTNENITLPCKIRQIVRMWQTVGQAMYAPPIAGSIICTSNITGLILTRDGGSNETNGTDTFRPGGGNMKDNWRSELYKYKVVKIKPLGIAPTKARRRVVGREKRAIGVLGAALLGFLGTAGSTMGAASITLTVQVRQLLSGIVQQQSNLLRAIEAQQHLLQLTVWGIKQLQARVLAVERYLRDQQLLGIWGCSGKLICTTNVPWNASWSNKSYEEIWDNMTWIQWDREIDNYTQLIYSLIEESQNQQEKNEQDLLALDKWTSLWSWFDISNWLWYIRIFIIIVGGLIGLRIVFAVLSIVNRVRQGYSPLSLQTLLPHPPEADRPGEIEEGGGEQGRTRSIRLVNGFLALAWDDLRNLCLFLYHHLRDFILTAARTVETLGHRGWEILKYLGNLLCYWGQELKNSVINLLDTTAIAVGNWTDRFIELGQRVVRAVLHIPRRTRQGLERALL

These binders were tested against antibody 10-1074 (assay: neutralization IC50; higher = virus less sensitive to the antibody).
Protocol: (§1)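 Pseudovirus bearing the Env chain mixed with antibody, from 50 µg/ml in fivefold dilutions, on TZM-bl reporter cells, in duplicate.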

Binder	neutralization IC50
B1	0.031 µg/mL and 0.026 µg/mL
B2	0.037 µg/mL
B3	0.003 µg/mL
B4	0.003 µg/mL
B5	0.008 µg/mL
B6	0.012 µg/mL

Each binder was assayed against antibody 3BNC117 in the same assay as above.
Protocol: as §1

Binder	neutralization IC50
B1	0.005 µg/mL and 0.006 µg/mL
B2	0.004 µg/mL
B3	0.004 µg/mL
B4	0.005 µg/mL
B5	0.007 µg/mL
B6	0.127 µg/mL

The binders below were run against antibody 10-1074 (assay: neutralization IC80; higher = virus less sensitive to the antibody).
Protocol: as §1

Binder	neutralization IC80
B1	0.236 µg/mL and 0.141 µg/mL
B2	0.781 µg/mL
B3	0.012 µg/mL
B4	0.019 µg/mL
B5	0.026 µg/mL
B6	0.036 µg/mL

These binders were tested against antibody 3BNC117 in the same assay as above.
Protocol: as §1

Binder	neutralization IC80
B1	0.016 µg/mL and 0.019 µg/mL
B2	0.014 µg/mL
B3	0.016 µg/mL
B4	0.018 µg/mL
B5	0.035 µg/mL
B6	0.414 µg/mL
